Anti-infective test results gathered from many reports (values: NIAID ChemDB through PubChem).

Shared fields: tests in culture; organism: HIV-1; read by: RT activity; read-out: EC50

An empty or dashed field is not shown. Lines come from different laboratories, so protocols vary. Two numbers with a dash give a range or band. ECn: concentration that inhibits the pathogen or its effect by n%.

compound,cell line,conditions,strain,changes,result
CC(=O)SCCOP(=O)(OCCSC(C)=O)OC[C@@H]1CC[C@H](n2cnc3c(N)ncnc32)O1,CEM + CEM TK-,-,LAI,-,0.00077 µM
CCc1cc(COCc2cccc(Br)c2)c(OC)nc1C,CEM + CEM-SS,-,LAI,-,>10 µM
CCOC(=O)CCNP(=O)(OC[C@@H]1O[C@H](n2cc(C)c(=O)[nH]c2=O)C[C@H]1N=[N+]=[N-])OC[C@H]1O[C@@H](n2cc(C)c(=O)[nH]c2=O)C[C@@H]1N=[N+]=[N-],CEM + CEM TK-,-,LAI,-,64 µM
Cc1cn([C@H]2C[C@H](N=[N+]=[N-])[C@@H](COP(=O)(O)OC[C@@H]3CC[C@H](n4cnc5c(=O)[nH]cnc54)O3)O2)c(=O)[nH]c1=O,PBMC,-,LAV,-,0.00007–0.00014 µM
CCc1cc(COCc2cccc(F)c2)c(=O)[nH]c1C,CEM + CEM-SS,-,LAI,-,>10 µM
Nc1ncnc2c1ncn2C1OC(CO)C=C1F,PBMC,-,LAV,-,1.5 µM
CCCc1cc(=O)oc2c3c(c4c(c12)OC(C)(C)C=C4)O[C@@H](C)[C@H](C)[C@@H]3O,PBMC,-,SLKA(SI),-,0.03 µM
Nc1ncnc2c1ncn2[C@H]1CC[C@@H](CO)O1,CEM + CEM-SS,5 d,IIIB,-,0.08 µM
CCc1c(Sc2cc(C)cc(C)c2)n(CCCCC(=O)NCCCCCCCCCCNC(=O)CCc2cn([C@H]3C[C@H](N=[N+]=[N-])[C@@H](CO)O3)c(=O)[nH]c2=O)c(=O)[nH]c1=O,MT-4,-,IIIB,-,>10 µM
CCc1nc2ccccn2c1C(=O)c1cccs1,MM + M/M,-,BaL,-,0.5 µM
Cc1cn([C@H]2CC[C@@H](CO)O2)c(=O)[nH]c1=O,CEM + CEM-SS,-,LAI,-,4 µM
CCN(CCO)CCCC(C)Nc1ccnc2cc(Cl)ccc12,CEM,-,IIIB,-,~100 µg/mL
O=c1[nH]cnc2c1ncn2[C@H]1CC[C@@H](CO)O1,MT-4,-,HXB2-D294 (RT-P294S),RT-P294S,6.9 µM
O=C(O)C(=O)CC(=O)c1cc(OCc2ccccc2)cc(OCc2ccccc2)c1,MT-4,-,IIIB,-,>10 µM
O=C(O)c1cc(O)cc(O)c1N=Nc1ccc(/C=C/c2ccc(N=Nc3c(O)cc(O)cc3C(=O)O)cc2S(=O)(=O)O)c(S(=O)(=O)O)c1,PBL,-,IIIB,-,2.6 µg/mL
CCc1cc(COCc2cccc(Br)c2)c(=O)[nH]c1C,CEM + CEM-SS,-,LAI,-,>10 µM
O=C(O)P(=O)(O)O,PBL,14 d,IIIB,-,<256 µM
CCc1cc(COCc2ccccc2Br)c(OC)nc1C,CEM + CEM-SS,-,LAI,-,>10 µM
Cc1cn([C@H]2C=C[C@@H](CO)O2)c(=O)[nH]c1=O,PBMC,-,-,-,0.04 µM
Cc1cn([C@H]2C[C@H](N=[N+]=[N-])[C@@H](COP(=O)(O)OC[C@H]3CC[C@@H](n4cnc5c(N)ncnc54)O3)O2)c(=O)[nH]c1=O,PBMC,-,LAV,-,0.00003 µM
O=S1(c2ccccc2)=NC(=S)Nc2ccccc21,PBL,-,RF,-,0.04 µM
COc1cc([C@H]2OC[C@H]3[C@@H]2CO[C@@H]3c2ccc3c(c2)OCO3)cc(OC)c1OC,H9,-,IIIB,-,<10.6 µM
O=Nc1c(-c2c(O)[nH]c3ccccc23)[nH]c2ccccc12,PBMC,-,ADA R5,-,0.5 µM
Cc1cn([C@H]2C=C[C@@H](COC(=O)CNC(=O)C(=O)/C=C(\O)c3cc(OCc4ccccc4)cc(OCc4ccccc4)c3)O2)c(=O)[nH]c1=O,PBMC,-,BaL,-,0.83 µM
CCc1nc2sccn2c1C(=O)c1ccccc1,CEM + CEM-SS,-,LAI,-,6 µM
O=C(CCNC(=O)C(=O)/C=C(\O)c1cccn1Cc1ccc(F)cc1)OC[C@@H]1C=C[C@H](n2ccc(=O)[nH]c2=O)O1,MT-4,-,IIIB,-,>10 µM
CCN(CC)C(=O)OCC1CN(C(=O)c2cc(OC)c(OC)c(OC)c2)CCN1C(=O)c1cc(OC)c(OC)c(OC)c1,Macrophage + Monocytes/macrophages,-,THI Primary isolate,-,10 µM
Nc1ncnc2c1ncn2[C@H]1CC[C@@H](CO)O1,PBMC,-,LAV,-,0.5 µM
NC(=O)c1ncn([C@@H]2O[C@H](CO)[C@@H](O)[C@H]2O)c1N,CEM + CEM-SS,16 h,IIIB,-,>250 µM
Nc1ncnc2c(C3OC(CO)C(O)C3O)c[nH]c12,PBMC,-,LAV,-,0.004 µM
CCc1nc2ccccn2c1C(=O)c1ccco1,U1,-,-,-,>100 µM
CC(=O)SCCOP(=O)(OCCSC(C)=O)OC[C@@H]1CC[C@H](n2cnc3c(=O)[nH]cnc32)O1,MT-4,-,LAI,-,3.4 µM
CCOC(=O)[C@H](C)NP(=O)(OC[C@@H]1O[C@H](n2cc(C)c(=O)[nH]c2=O)C[C@H]1N=[N+]=[N-])OC[C@H]1O[C@@H](n2cc(C)c(=O)[nH]c2=O)C[C@@H]1N=[N+]=[N-],CEM + CEM TK-,-,LAI,-,89 µM
CC(C)c1nc(CN(C)C(=O)N[C@H](C(=O)N[C@@H](Cc2ccccc2)C[C@H](O)[C@H](Cc2ccccc2)NC(=O)OCc2cncs2)C(C)C)cs1,CEM + CEM-SS,-,RF,-,0.0355 µM
COc1cc(C[C@@]2(O)C(=O)OC[C@@H]2Cc2ccc(OC)c(OC)c2)ccc1O,H9,-,IIIB,-,~0.52 µM
Cc1cn([C@H]2C[C@@H](CCl)[C@@H](CO)O2)c(=O)[nH]c1=O,PBMC,-,LAV,-,>100 µM
CC(C)(C)NC(=O)[C@@H]1C[C@@H]2CCCC[C@@H]2CN1C[C@@H](O)[C@H](Cc1ccccc1)NC(=O)[C@H](CC(N)=O)NC(=O)c1ccc2ccccc2n1,CEM + CEM-SS,-,RF,-,0.00528 µM
COc1cc(C[C@@](O)(C(N)=O)[C@H](CO)Cc2ccc(OC)c(OC)c2)ccc1O,H9,-,IIIB,-,<1.8 µM
Nc1ccn([C@@H]2O[C@H](CO)C3OC32)c(=O)n1,ATH8,-,-,-,<5 µM
Cc1cn([C@H]2C[C@H](N=[N+]=[N-])[C@@H](CO)O2)c(=O)[nH]c1=O,CEM + CEM-SS,-,-,-,0.5 µM
CCc1nc2ncccn2c1C(=O)c1ccccc1,CEM + CEM-SS,-,LAI,-,62 µM
COC(=O)C(C)CNP(=O)(OC[C@@H]1CC[C@H](n2cc(C)c(=O)[nH]c2=O)O1)Oc1ccc(OC)cc1,PBMC,-,-,-,1.3 µM
CCc1cc(COCc2ccc(F)cc2)c(=O)[nH]c1C,CEM + CEM-SS,-,LAI,-,>100 µM
Cc1cn([C@H]2C=C[C@@H](COC(=O)CCNC(=O)C(=O)/C=C(\O)c3cc(OCc4ccccc4)cc(OCc4ccccc4)c3)O2)c(=O)[nH]c1=O,MT-4,-,IIIB,-,2.2 µM
CC(=O)SCCOP(=O)(OCCSC(C)=O)OC[C@@H]1CC[C@H](n2ccc(=O)[nH]c2=O)O1,MT-4,-,LAI,-,2 µM
Cc1cn([C@H]2C[C@H](N=[N+]=[N-])[C@@H](CO)O2)c(=O)[nH]c1=O,MT-4,-,Clinical isolate 263,-,0.02 µM
Nc1nc(Cl)nc2c1ncn2[C@H]1CC[C@@H](CO)O1,C8166,-,HXBc2,-,<100 µM
CCc1cc(COCc2ccccc2F)c(=O)[nH]c1C,CEM + CEM-SS,-,LAI,-,4.3 µM
CC(=O)SCCOP(=O)(OCCSC(C)=O)OC[C@H]1O[C@@H](n2cc(C)c(=O)[nH]c2=O)C[C@@H]1N=[N+]=[N-],CEM + CEM-SS,-,LAI,-,0.022 µM
Cc1cn([C@H]2C[C@H](N=[N+]=[N-])[C@@H](COP(=O)(O)OC[C@@H]3CC[C@H](n4cnc5c(=O)[nH]cnc54)O3)O2)c(=O)[nH]c1=O,MT-4,-,IIIB,-,0.05 µM
Cc1ccnc2c1NC(=O)c1cccnc1N2C1CC1,PBMC,-,SLKA(SI),-,0.2 µM
O=c1[nH]cnc2c1ncn2[C@H]1O[C@@H](CO)C=C1F,PBMC,-,LAV,-,>100 µM
CC(=O)SCCOP(=O)(OCCSC(C)=O)OC[C@@H]1CC[C@H](n2cc(C)c(=O)[nH]c2=O)O1,CEM + CEM TK-,-,LAI,-,0.5 µM
CCc1cc(COCc2ccccc2F)c(OC)nc1C,CEM + CEM-SS,-,LAI,-,>10 µM
COC(=O)C(C)CNP(=O)(OC[C@@H]1CC[C@H](n2cc(C)c(=O)[nH]c2=O)O1)Oc1ccc(Cl)cc1,PBMC,-,-,-,2.1 µM
c1cc2c(cc1[C@H]1OC[C@H]3[C@@H]1CO[C@@H]3c1ccc3c(c1)OCO3)OCO2,H9,-,IIIB,-,<8.2 µM
COC(=O)C(C)CNP(=O)(OC[C@@H]1CC[C@H](n2cc(C)c(=O)[nH]c2=O)O1)Oc1ccccc1,PBMC,-,-,-,2.1 µM
CCc1cc(COCc2ccccc2)c(=O)[nH]c1C,CEM + CEM-SS,-,LAI,-,12 µM
Cc1cn([C@H]2C[C@@H](CO)[C@@H](CO)O2)c(=O)[nH]c1=O,PBMC,-,LAV,-,87.7 µM
CC(C)CN(C[C@@H](O)[C@H](Cc1ccccc1)NC(=O)O[C@H]1CCOC1)S(=O)(=O)c1ccc(N)cc1,MT-2,-,RF,-,0.0534 µM
CCCc1cc(=O)oc2c3c(c4c(c12)OC(C)(C)C=C4)O[C@H](C)[C@@H](C)[C@@H]3O,PBMC,-,SLKA(SI),-,0.3 µM

9 of the rows above, restated:

CC(C)(C)NC(=O)[C@@H]1C[C@@H]2CCCC[C@@H]2CN1C[C@@H](O)[C@H](Cc1ccccc1)NC(=O)[C@H](CC(N)=O)NC(=O)c1ccc2ccccc2n1 ; cell line: CEM + CEM-SS ; strain: RF ; result: 0.00528 µM
COC(=O)C(C)CNP(=O)(OC[C@@H]1CC[C@H](n2cc(C)c(=O)[nH]c2=O)O1)Oc1ccc(Cl)cc1 ; cell line: PBMC ; result: 2.1 µM
CCc1cc(COCc2ccccc2)c(=O)[nH]c1C ; cell line: CEM + CEM-SS ; strain: LAI ; result: 12 µM
CCc1nc2ccccn2c1C(=O)c1cccs1 ; cell line: MM + M/M ; strain: BaL ; result: 0.5 µM
O=C(O)c1cc(O)cc(O)c1N=Nc1ccc(/C=C/c2ccc(N=Nc3c(O)cc(O)cc3C(=O)O)cc2S(=O)(=O)O)c(S(=O)(=O)O)c1 ; cell line: PBL ; strain: IIIB ; result: 2.6 µg/mL
Cc1cn([C@H]2C=C[C@@H](COC(=O)CCNC(=O)C(=O)/C=C(\O)c3cc(OCc4ccccc4)cc(OCc4ccccc4)c3)O2)c(=O)[nH]c1=O ; cell line: MT-4 ; strain: IIIB ; result: 2.2 µM
COc1cc(C[C@@]2(O)C(=O)OC[C@@H]2Cc2ccc(OC)c(OC)c2)ccc1O ; cell line: H9 ; strain: IIIB ; result: ~0.52 µM
NC(=O)c1ncn([C@@H]2O[C@H](CO)[C@@H](O)[C@H]2O)c1N ; cell line: CEM + CEM-SS ; conditions: 16 h ; strain: IIIB ; result: >250 µM
CC(=O)SCCOP(=O)(OCCSC(C)=O)OC[C@@H]1CC[C@H](n2ccc(=O)[nH]c2=O)O1 ; cell line: MT-4 ; strain: LAI ; result: 2 µM